# Data source: PubChem BioAssay AID504761 (Drosophila RNAi Screening Center, 2011)
# Aim: 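Genome-wide fly cell screen for genes dengue virus requires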 (primary screen)
# Cells: D.Mel-2 cells from Drosophila
# Reagents: long dsRNA against Drosophila genes
# Challenge: infection with dengue virus type 2; dose and infection time not stated
# Read-out: 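Per well on two replicate plates, imaging gave the percent of cells positive for viral envelope protein, ranked by infection, and a nuclear count of cells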
# Reading the numbers: infection score: higher = more virus-infected cells; cell count: higher = more cells in the well
# Hit rule: 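Very low infection ranking in both replicate wells (chance probability at most 0.065), then a retest showing infection dropped 1.5-fold or more at p below 0.05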
# Meaning of the calls: active = confirmed: knock-down lowers infection; inactive = not picked or not confirmed
# In all, the deposit lists about 22,000 reagents; shown is a random part of those with a known target gene and a result. In the full data, 116 (0.52%) got an active call. 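Calls depend on retest data that are not deposited; infection was ranked per plate without normalising between plates; the unit of the infection score is not given.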 Raw values are not corrected between plates. Entries without a mark were called inactive. Reagents against one gene are numbered here. A plus sign joins genes that one reagent is predicted to hit. Not stated in the record: the amount of reagent, the time to read-out.
"infection score, replicate 1","infection score, replicate 2","cell count, replicate 1","cell count, replicate 2",Gene,dsRNA no.
0.33,0.18,6306,6132,BaraA1 + BaraA2,1
10.9,21.3,1334,5084,CG4324,1
6.05,10.9,6484,6708,CG4324,2
1.7,3.98,6247,6610,ppk8,1
6.68,14.6,6524,6164,yrt,1
0.84,9.51,6884,6150,CG15695,1
0.68,9.64,438,1536,CG15695,2
6.14,10.2,6614,5417,Vps25,1
6.24,3.08,5605,5707,Acyp,1
10.2,6.01,5578,5306,trv,1
,1.27,310,7028,trv,2
3.46,1.43,6563,558,trv,3
14.2,10.2,5985,6253,trv,4
1.14,6.94,6394,6552,trv,5
3.8,10.3,5898,6236,CG9286,1
20.6,4.07,4805,6835,CG9286,2
1.6,1.22,5704,6383,CG3280 (retired record),1
19.1,14.2,5757,6505,Cpr49Ad,1
1.5,2.28,6582,6760,PGRP-SB1,1
8.38,9.59,6242,6038,Osi21,1
1.84,1.95,5169,6140,puc,1
4.21,2.36,5300,6132,puc,2
13.3,6.2,5822,6275,Pino,1
4.52,1.67,6170,6479,Pino,2

Taken from above.
puc #1, cell count, replicate 1: 5169
Value of trv #1 in “cell count, replicate 2”: 5306
